According to patent CN116406375A, “抗SARS-CoV-2刺突蛋白的三聚体抗体” (UNIV SHANGHAI TECHNOLOGY, dated 2023):

Molecular target: SARS-CoV-2 K417N+E484K+N501Y+D614G假病毒的刺突Δ19 (SARS-CoV-2, UniProt P0DTC2 14-1254)
Experiment: cell-based or functional assay

Binder	NT50(B.1.351)
S-D9二聚体 (antibody, V domains shown) VH: QVQLVQSGAELKKPGESLKISCTASGYSFTNYWIAWVRQMPGKGLEWMGIVNPADSDTRYSPAFQGQVTMSADKSFNTAYLQWSRLKASDTAMYYCARLGQDHNSGWYTYFHPMDVWGQGTTVTVSS VL: QSALTQPASVSGSPGQSITISCTGTRSDVGGYNYVSWYQQHPGKAPKLLIFGVNDRPSGVSDRFSGSRTGNTASLTISGLQPEDEADYYCSSFTRGTTLLVFG	~1.5 nM
S-B2二聚体 (antibody, V domains shown) VH: QVQLQESGGGVVQPGRSLRLSCAASGFTFSSYAMHWVRQAPGKGLEWVAVISYDGSNKYYADSVKGRFTISRDNSKNTLYLQMNSLRAEDTAVYYCARDYGDYLLDYWGQGTLVTVSS VL: LSALTQPASASGSPGQSVTISCTGTSSDVGGYNYASWYQQHPGKAPKLLIYEVTKRPSGVPDRFSSSKSGNTASLTVSGLQAEDEADYYCSSYTGTLLLFGGGTKLTVL	> 100 nM
